Source: PMC9646764 (2022)

Key:
Cattle TFPI-Fc [1] = target: T1, Cattle TFPI-Fc (cattle, UniProt A0A3Q1NLA0 25-208)
T1 chain: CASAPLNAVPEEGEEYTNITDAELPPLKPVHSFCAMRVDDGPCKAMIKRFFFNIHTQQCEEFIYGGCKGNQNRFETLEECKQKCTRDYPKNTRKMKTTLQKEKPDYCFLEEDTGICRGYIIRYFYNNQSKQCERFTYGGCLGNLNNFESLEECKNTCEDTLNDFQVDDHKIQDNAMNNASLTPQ

Dog TFPI-Fc [2] = target: T2, Dog TFPI-Fc (dog, UniProt A0A8I3P810 29-209)
T2 chain: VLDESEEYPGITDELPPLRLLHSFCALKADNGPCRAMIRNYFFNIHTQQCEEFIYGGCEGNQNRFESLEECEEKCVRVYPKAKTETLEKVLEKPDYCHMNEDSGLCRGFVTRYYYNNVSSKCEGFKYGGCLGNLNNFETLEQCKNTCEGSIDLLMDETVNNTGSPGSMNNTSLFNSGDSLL

Cattle TFPI-Fc [3] = target: T1, Cattle TFPI-Fc
Dog TFPI-Fc [4] = target: T2, Dog TFPI-Fc

B1: TcdB4.2_(1286-1805) (domain or fragment)
chain: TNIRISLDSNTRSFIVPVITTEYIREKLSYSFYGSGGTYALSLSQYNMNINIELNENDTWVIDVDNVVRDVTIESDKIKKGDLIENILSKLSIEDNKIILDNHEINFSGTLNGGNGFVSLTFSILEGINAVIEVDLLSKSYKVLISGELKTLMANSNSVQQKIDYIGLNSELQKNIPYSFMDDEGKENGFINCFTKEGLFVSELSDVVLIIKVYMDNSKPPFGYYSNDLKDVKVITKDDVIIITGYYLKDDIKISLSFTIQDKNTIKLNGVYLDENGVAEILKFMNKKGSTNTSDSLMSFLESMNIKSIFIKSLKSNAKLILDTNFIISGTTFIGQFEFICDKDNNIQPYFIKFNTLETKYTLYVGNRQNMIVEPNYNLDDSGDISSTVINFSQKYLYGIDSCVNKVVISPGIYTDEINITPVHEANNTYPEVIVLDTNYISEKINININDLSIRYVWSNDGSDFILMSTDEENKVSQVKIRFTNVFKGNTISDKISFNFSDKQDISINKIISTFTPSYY
Cattle TFPI-Fc [1]
  Kd: 536 nM
Dog TFPI-Fc [2]
  Kd: 15.2 nM
Cattle TFPI-Fc [3]
  koff: 0.0138 s⁻¹
Dog TFPI-Fc [4]
  koff: 0.000395 s⁻¹
